{"sequences": {"note": "Sequences of proteins named here, by UniProt entry; tags and fusion partners are left off.", "UniProt P86926, whole entry": "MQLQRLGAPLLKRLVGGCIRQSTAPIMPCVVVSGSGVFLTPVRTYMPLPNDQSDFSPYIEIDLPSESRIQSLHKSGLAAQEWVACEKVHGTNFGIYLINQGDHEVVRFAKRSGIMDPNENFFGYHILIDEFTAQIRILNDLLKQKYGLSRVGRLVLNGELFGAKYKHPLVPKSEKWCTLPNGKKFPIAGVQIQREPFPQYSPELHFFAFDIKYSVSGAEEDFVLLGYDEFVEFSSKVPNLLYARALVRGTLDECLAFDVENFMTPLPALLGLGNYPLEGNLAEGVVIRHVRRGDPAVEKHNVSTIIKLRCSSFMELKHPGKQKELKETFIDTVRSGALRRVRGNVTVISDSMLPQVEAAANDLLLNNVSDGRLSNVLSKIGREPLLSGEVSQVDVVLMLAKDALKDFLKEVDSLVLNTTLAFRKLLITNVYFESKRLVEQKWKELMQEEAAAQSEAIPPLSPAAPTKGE"}, "source": "PubChem BioAssay AID1117264", "about": "(The Scripps Research Institute Molecular Screening Center, 2014)", "note": "The entries are a selection whose mix differs from that of the whole data set. The source made the active and inactive calls.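 Rule for the calls: active = inhibition above the mean inhibition across all screened compounds plus 3 SD (cut at about 11% in these data); inactive = the rest.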"}
{"target": "RNA-editing ligase 1, mitochondrial (Trypanosoma brucei brucei) (UniProt P86926)", "experiment": "TbREL1 RNA ligase inhibitors, primary screen, biochemical, FRET fluorescence (AID 1117264);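 note: 0% = plate median of test wells and 100% = NSC42067 control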", "conditions": "TbREL1 RNA ligation, at 9.66 µM, hits give high values"}
{"smiles": "CP(=O)(Nc1ccccc1Br)Oc1ccccc1", "note": "(stereo not drawn)", "inhibition": "inactive: 1.02%"}
{"smiles": "COc1ccccc1OP(C)(=O)Nc1ccccc1", "note": "(stereo not drawn)", "inhibition": "inactive: -0.31%"}
{"smiles": "CP(=O)(Oc1ccccc1)OC(c1ccccc1)C(F)(F)F", "note": "(stereo not drawn)", "inhibition": "inactive: 1.68%"}
{"smiles": "CCN(CC)CCCOC(=O)C(O)(c1ccccc1)c1ccccc1", "inhibition": "inactive: 3.08%"}
{"smiles": "COc1ccccc1-c1ccccn1.O=[N+]([O-])c1cc([N+](=O)[O-])c(O)c([N+](=O)[O-])c1", "inhibition": "inactive: 3.42%"}
{"smiles": "CC(C)(C)c1ccc(OP(C)(=O)Nc2ccc(SC(F)(F)F)cc2)cc1", "note": "(stereo not drawn)", "inhibition": "inactive: 4.17%"}
{"smiles": "Cc1cc(C)cc(OP(C)(N)=O)c1", "note": "(stereo not drawn)", "inhibition": "inactive: 2.51%"}
{"smiles": "COc1ccc(OP(C)(=O)Nc2cccc(F)c2)cc1", "note": "(stereo not drawn)", "inhibition": "inactive: 0.86%"}
{"smiles": "CCOC(=O)c1ccc(NP(C)(=O)Oc2ccccc2)cc1", "note": "(stereo not drawn)", "inhibition": "inactive: -0.98%"}
{"smiles": "Cc1ccc(C)c(NP(C)(=O)Oc2ccccc2)c1", "note": "(stereo not drawn)", "inhibition": "inactive: -0.53%"}
{"smiles": "CP(=O)(Nc1cccc(Br)c1)Oc1ccccc1", "note": "(stereo not drawn)", "inhibition": "inactive: -1.06%"}
{"smiles": "CCCOc1ccc(NP(C)(=O)Oc2ccc(Cl)cc2)cc1", "note": "(stereo not drawn)", "inhibition": "inactive: -2.47%"}
{"smiles": "CP(=O)(Nc1ccc(Cl)cc1Cl)Oc1ccccc1", "note": "(stereo not drawn)", "inhibition": "inactive: 2.53%"}
{"smiles": "CP(=O)(Nc1ccccn1)Oc1ccccc1", "note": "(stereo not drawn)", "inhibition": "inactive: 2.61%"}
{"smiles": "Cc1c(NP(C)(=O)Oc2ccc(C(C)C)cc2)c(=O)n(-c2ccccc2)n1C", "note": "(stereo not drawn)", "inhibition": "inactive: -2.82%"}
{"smiles": "COc1ccc(OP(C)(=O)Nc2ccc(Br)cc2)cc1", "note": "(stereo not drawn)", "inhibition": "inactive: 1.75%"}
{"smiles": "CN(C)C(=O)c1c([N+](=O)[O-])cc([N+](=O)[O-])cc1[N+](=O)[O-]", "inhibition": "inactive: -1.18%"}
{"smiles": "CCOC(=O)c1ccc(NP(C)(=O)Oc2ccc(Cl)cc2)cc1", "note": "(stereo not drawn)", "inhibition": "inactive: 5.43%"}
